Measurements as given in PMC526180, “Conservation and Evolution of Cis-Regulatory Systems in Ascomycete Fungi”.
Construct, isoform or probe ends are uncertain for at least one entry. No signal at the amounts used counts as a negative. The comparison behind a weaker result is the experiment's own reference, which may not be listed here.

Experiments:
[1] = tested on: Ca_Rpn4p (Candida albicans NIH 3147 (ATCC 10231D)); assay: SPR; settings: Biacore 3000 SA chip, recombinant protein, protein details: N-terminal calmodulin-binding protein tag (pCAL-n)
[2] = tested on: Ca_Rpn4p (Candida albicans NIH 3147 (ATCC 10231D)); assay: competition with a labelled probe; settings: SPR, 1x and 5x competitor, HBS: 10 mM HEPES pH 7.4, 150 mM NaCl, 3 mM EDTA, 0.005% P20, room temperature, 10 ul/min, 90 s injection, competitors preincubated 50 min on ice, recombinant protein, protein details: N-terminal calmodulin-binding protein tag (pCAL-n)

ACTTGTTCCCGCTCGCTGGAGCTCCTCCAACGACACGGGC (double strand) [Sequence I]
binding result [1]: no binding

CCAGATAATCAGTGGCAAAACGGAAGAAAA (double strand) [Sequence E competitor]
binding result [2]: binds more weakly

CCAGATAATCCTGCATTTGGCGGAAGAAAA (double strand) [Sequence G competitor]
binding result [2]: no binding

CCAGATAATCGGTGGCAAAACGGAAGAAAA (double strand) [Sequence D competitor]
binding result ([2]; best competitor on Sequences A, B, C): binds

CCAGATAATCGGTGGCAACACGGAAGAAAA (double strand) [Sequence F competitor]
binding result [2]: binds more weakly

GCGTGCCAGATAATCAGTGGCAACACGGAAGAAAAAGTGA (double strand) [Sequence C]
binding result ([1]; 50 nM protein, nearly the same as Sequence B): binds more weakly

GCGTGCCAGATAATCGAAGGCAAAACGGAAGAAAAAGTGA (double strand) [Sequence B]
binding result ([1]; 50 nM protein, nearly the same as Sequence C): binds more weakly

GCGTGCCAGATAATCGGTGGCAAAACGGAAGAAAAAGTGA (double strand) [Sequence A]
binding result ([1]; 50 nM protein): binds
